We go through one compound from patent publication US4141989A, “Fungicidal 3-(N-chloroacetyl-N-arylamino)-gamma-butyrolactone compositions” (Chevron Research Company, priority 1977, dated 1979).

Holding throughout (format): in vivo
The subject of assay [1] is Plasmopara viticola. As to the kind of experiment: Preventive grape downy mildew control, detached Emperor leaves (Example 5, Table I).
Assay [2] deals with Plasmopara viticola. Put plainly: Eradicant grape downy mildew control, detached Emperor leaves (Example 6, Table I).
Assay [3] has as its system Plasmopara viticola. Put plainly: Preventive grape downy mildew control, detached Cabernet Sauvignon leaves (Example 7, Table II).
Assay [4] relates to Plasmopara viticola. Put plainly: Eradicant downy mildew control on Emperor and Carignane grape leaves (Example 9, Table IV).
A further assay concerns Bremia lactucae. As to the kind of experiment: Control of lettuce downy mildew (Example 13, Table VIII). The conditions noted are these: 160 g active/hl.
For assay [5], the system named is Peronospora parasitica ssp. brassicae. As to the kind of experiment: Preventive control of cabbage downy mildew (Example 14, Table IX). The following applies: 160 g a.i./hl.
Assay [6] has the same test system. Put plainly: Curative control of cabbage downy mildew (Example 14, Table IX). The conditions noted are these: 160 g a.i./hl.
In assay [7] the test system is Phytophthora cryptogea. Put plainly: Snapdragon crown and root rot control, soil drench (Example 16, Table XI). The following applies: 100 ppm.
In assay [8] the test system is Phytophthora cryptogea. Put plainly: Snapdragon crown and root rot control, foliar spray (Example 16, Table XI). The following applies: 100 ppm.
Setting [9] is: Carignane leaves, treated 3 days after inoculation.
The mark [10] stands for this setting: Emperor leaves, treated 1 day after inoculation.
Where [11] appears, read: Emperor leaves, treated 2 days after inoculation.
[12] abbreviates: disease reduction relative to check flat.

For the compound `O=C1[C@H]2CC=CC[C@H]2C(=O)N1SC(Cl)(Cl)C(Cl)Cl` (relative stereo), the “Preventive Grape Downy Mildew Control, %” value in the assay on Plasmopara viticola [1] (40 ppm, sprayed before inoculation) was found to be 84%. In addition, the “Preventive ED50 (ppm of applied spray for 50% control)” value in the assay on Plasmopara viticola [1] (preventive) was 22 ppm. In the assay with Plasmopara viticola [1] (preventive), the “Preventive ED90 (ppm of applied spray for 90% control)” value is recorded as 54 ppm. Besides, the “Eradicative Grape Downy Mildew Control, %” value with Plasmopara viticola [2] (200 ppm, sprayed 2 days after inoculation) was determined as 74%. The “Eradicative ED50 (ppm of applied spray for 50% control)” value in the assay on Plasmopara viticola [2] (eradicative) is listed as 100 ppm. Besides, in the assay with Plasmopara viticola [2] (eradicative), the “Eradicative ED90 (ppm of applied spray for 90% control)” value came to 310 ppm. The “Percent Control” value in the assay on Plasmopara viticola [3] (6.4 ppm) worked out at 95.3%; in the assay on Plasmopara viticola [3] (16 ppm) it was 98.8%; in the assay with Plasmopara viticola [3] (40 ppm) it was 96.5%. Besides, the “Eradication ED50 (ppm of applied spray for 50% control)” value in the assay on Plasmopara viticola [4] (setting [9]) came to 206 ppm; in the assay on Plasmopara viticola [4] (setting [10]), 55 ppm; with Plasmopara viticola [4] (setting [11]), 64 ppm. For the same compound, the “Eradication ED90 (ppm of applied spray for 90% control)” value was 670 ppm with Plasmopara viticola [4] (setting [9]), 145 ppm in the assay on Plasmopara viticola [4] (setting [10]) and 168 ppm with Plasmopara viticola [4] (setting [11]). Besides, the “% Control” value amounted to 85.2% in the assay with Bremia lactucae; 38.9% in assay [5] (setting [12]); 32.9% in assay [6] (setting [12]); 0% in the assay on Phytophthora cryptogea [7]; 0% in the assay on Phytophthora cryptogea [8]. Besides, the “% Dead Seedlings” value in the assay on Bremia lactucae is 3.6%. Moreover, the “% Diseased Seedlings” value in [5] is 59.6%; in assay [6], 65.5%.
